Anti-infective test results gathered from many reports (values: NIAID ChemDB through PubChem).

Shared fields: whole-cell or culture tests; organism: Hepatitis B virus; measure: EC50

a–b is a range or a potency band. Conditions beyond the fields shown may differ between rows. Blank or dashed fields: not listed here. ECn is the concentration giving n% inhibition of infection, replication or growth.

SMILES,strain or isolate,cell line,value
Cc1ccc([C@@H](C)CCC(=O)C(C)(C)O)c(O)c1,-,2.2.15,>61 µg/mL
Nc1cn([C@@H]2C[C@H](O)[C@@H](CO)O2)c(=O)nc1N,-,HepG2,>10 µM
CC(C)=CCC[C@H](C)c1ccc(CO)cc1O,-,2.2.15,>61 µg/mL
COC(=O)C1=C(C)NC(c2ccccn2)=NC1c1ccccc1[N+](=O)[O-],-,HepG2.2.15,20 µM
CC1=CC[C@]2(C)CC(=O)[C@]3(C)C(=O)C=C(C(C)C)[C@@H]3[C@H]2CC1,-,-,>100 µg/mL
C[C@]1(CO)CO[C@H](n2ccc(=O)[nH]c2=O)C1,-,-,>100 µM
Nc1ccn([C@@H]2C=C[C@H](CO)O2)c(=O)n1,-,HepG2.2.15,14 µM
Cn1nc2cc(NS(=O)(=O)c3ccn(-c4cccc(F)n4)n3)ccc2c1C(=O)Nc1ccc(F)c(Cl)c1,-,HepAD38,100–1000 µM
Nc1ccn([C@@H]2CS[C@H](CO)O2)c(=O)n1,-,2.2.15,0.1 µM
Nc1nc2c(ncn2[C@@H]2C[C@H](CO)[C@H]2CO)c(=O)[nH]1,-,HEPAD79,1.1 µg/mL
Nc1cn([C@@H]2CC[C@@H](CO)O2)c(=O)[nH]c1=O,-,HepG2,>10 µM
Cc1cn([C@@H]2C[C@@](C)(CO)CO2)c(=O)[nH]c1=O,-,-,>100 µM
Nc1cn([C@H]2CC[C@@H](CO)O2)c(=O)nc1N,-,HepG2,>10 µM
CC(C)=CCC[C@H](C)c1ccc(C)c([N+](=O)[O-])c1O,-,2.2.15,>61 µg/mL
N=c1nc(N)c2ncn([C@@H]3O[C@H](CO)[C@@H](O)[C@H]3O)c2c(N)n1,-,2.2.15,>10 µM
Nc1cn([C@H]2C[C@H](O)[C@@H](CO)O2)c(=O)nc1N,-,HepG2,>10 µM
Cc1ccc([C@@H](C)CCCC(C)(C)O)c(O[C@@H]2OC(CO)[C@@H](O)C(O)[C@@H]2O)c1,-,2.2.15,>61 µg/mL
C[C@]1(CO)CO[C@H](n2ccc(N)nc2=O)C1,-,-,>100 µM
Nc1nc(Cl)c2ncn(C=C3C[C@H]3CO)c2n1,-,2.2.15,>10 µM
COC(=O)[C@H](C)NP(=O)(OCC1C/C1=C\n1cnc2c(N)ncnc21)Oc1ccccc1,-,2.2.15,1.2 µM
Nc1nc2c(ncn2COC(CO)CO)c(=O)[nH]1,-,HepAD38,>50 µg/mL
COC(=O)C1=C(C(F)(F)F)NC(c2ccccn2)=NC1c1ccccc1Cl,-,HepG2.2.15,>100 µM
Nc1ncnc2c1ccn2[C@@H]1C[C@@H](O)[C@H](CO)O1,-,-,0.005–0.015 µM
COC(=O)C1=C(C)NC(c2ccc(F)cn2)=N[C@H]1c1ccc(F)cc1Cl,-,HepG2.2.15,0.1 µM
C[C@]1(CO)CO[C@H](n2cnc3c(=O)[nH]cnc32)C1,-,-,>100 µM
Cc1ccc([C@@H](C)CCCC(C)CO)c(O)c1,-,2.2.15,>61 µg/mL
CC1=CC[C@]2(C)CC[C@]3(C)C(=O)C=C(C(C)C)[C@@H]3[C@H]2CC1,-,-,>100 µg/mL
Nc1nc2c(ncn2C[C@]2(CO)C[C@H]2CO)c(=O)[nH]1,-,HepAD38,>20 µg/mL
Nc1ncnc2c1ncn2[C@@H]1O[C@H](CO)[C@](O)(C(F)(F)F)[C@H]1O,-,-,≥100 µM
CC(C)=CCC[C@H](C)c1ccc(C)cc1OC(=O)c1ccncc1,-,2.2.15,>61 µg/mL
C[C@]1(CO)CO[C@@H](n2cnc3c(=O)[nH]c(F)nc32)C1,-,-,>100 µM
Cc1ccc([C@@H](C)CCC(=O)O)c(O)c1,-,2.2.15,>61 µg/mL
COC(=O)[C@H](C)NP(=O)(OC[C@H]1C/C1=C/n1cnc2c(N)nc(N)nc21)Oc1ccccc1,-,CEM,>50 µM
Cc1c(Br)c(=O)[nH]c(=O)n1COC(CO)CO,Mutant M204I,B1,51 µg/mL
COC(=O)[C@H](C)NP(=O)(OC[C@@H]1C[C@]12C[C@@H]2n1cnc2c(N)ncnc21)Oc1ccccc1,-,2.2.15,3.1 µM
O=c1ccn([C@@H]2O[C@H](CO)[C@](O)(C(F)(F)F)[C@H]2O)c(=O)[nH]1,-,-,≥100 µM
COC(=O)C1=C(C)NC(c2ccccn2)=N[C@@H]1c1ccccc1Cl,-,HepG2.2.15,>100 µM
C/C(=C\CC[C@H](C)c1ccc(CO)cc1O)CO,-,2.2.15,>61 µg/mL
Nc1nc2c(ncn2CCC(CO)CO)c(=O)[nH]1,-,HepAD38,46 µg/mL

A second listing of 6 rows from above:

{"SMILES": "Cc1ccc([C@@H](C)CCC(=O)C(C)(C)O)c(O)c1", "cell line": "2.2.15", "value": ">61 µg/mL"}
{"SMILES": "COC(=O)[C@H](C)NP(=O)(OC[C@H]1C/C1=C/n1cnc2c(N)nc(N)nc21)Oc1ccccc1", "cell line": "CEM", "value": ">50 µM"}
{"SMILES": "CC(C)=CCC[C@H](C)c1ccc(C)c([N+](=O)[O-])c1O", "cell line": "2.2.15", "value": ">61 µg/mL"}
{"SMILES": "Nc1nc2c(ncn2C[C@]2(CO)C[C@H]2CO)c(=O)[nH]1", "cell line": "HepAD38", "value": ">20 µg/mL"}
{"SMILES": "Nc1cn([C@@H]2C[C@H](O)[C@@H](CO)O2)c(=O)nc1N", "cell line": "HepG2", "value": ">10 µM"}
{"SMILES": "Nc1nc2c(ncn2COC(CO)CO)c(=O)[nH]1", "cell line": "HepAD38", "value": ">50 µg/mL"}